Measurements published in patent US20090104178.

Legend:
[1] = molecular target: Human CCL25, human, O15444 24-150
hCCL20, Homo sapiens = hCCL20, Homo sapiens (UniProt P78556)
hCCL28, Homo sapiens = molecular target: T1, hCCL28, Homo sapiens (UniProt Q9NRJ3)
T1 sequence: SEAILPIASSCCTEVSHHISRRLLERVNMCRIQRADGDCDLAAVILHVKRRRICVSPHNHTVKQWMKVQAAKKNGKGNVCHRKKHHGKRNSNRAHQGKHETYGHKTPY

hCXCL13, Homo sapiens = molecular target: T2, hCXCL13, Homo sapiens (UniProt O43927)
T2 sequence: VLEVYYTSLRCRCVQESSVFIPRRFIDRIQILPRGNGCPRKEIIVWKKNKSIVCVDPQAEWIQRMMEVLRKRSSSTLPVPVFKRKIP

hCXCL14, Homo sapiens = molecular target: T3, hCXCL14, Homo sapiens (UniProt O95715)
T3 sequence: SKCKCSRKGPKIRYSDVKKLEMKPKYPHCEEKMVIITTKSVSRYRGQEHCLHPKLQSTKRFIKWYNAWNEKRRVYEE

[2] = molecular target: human CXCL12β, human, P48061 22-93

Q: How did the Kd [1] turn out when “Purified recombinant full-length VaV CrmB protein” was run?
A: Its Kd is 0.5 nM.

Q: What about the Kd (hCCL20, Homo sapiens) of the same substance?
A: Its Kd is 29.2 nM.

Q: And the Kd (hCCL28, Homo sapiens)?
A: The Kd was 0.39 nM.

Q: And the Kd (hCXCL13, Homo sapiens)?
A: The Kd was 5.95 nM.

Q: What about the Kd (hCXCL14, Homo sapiens) of the same substance?
A: The Kd was 6.29 nM.

Q: What about the Kd [2] of the same substance?
A: The Kd was 4.26 nM.
